Test results as given in patent publication US20230310474A1, “CORONAVIRUS TREATMENT COMPOSITION AND METHOD” (Cleveland State University, priority 2022, published 2023).
Results from cells or extracts need not show a direct contact.

Key:
[1] = target: Nucleocapsid (N) protein, sialidase-treated (desialylated) (SARS-CoV-2) (UniProt P0DTC9); assay: EMSA; details: protein in a lysate after overexpression
[2] = target: Nucleocapsid (N) protein, sialylated (SARS-CoV-2) (UniProt P0DTC9); assay: EMSA; details: protein in a lysate after overexpression
[3] = single-stranded DNA, variant of 32-mer stem-loop II motif ssRNA (32m)

Row | Sequence | binding result [1] | binding result [2] | binding result [1, 3] | binding result [2, 3]
1 | CGAGGCCACGCGGAGUACGAUCGAGGGUACAG [32-mer stem-loop II motif ssRNA (32m)] | binds | binds |  | 
2 | CGAGGCCACGCGGAGTACGATCGAGGGTACAG [32-mer ssDNA mimic of stem-loop II motif] |  |  | binds | binds
